Anti-infective test results gathered from many reports (values: NIAID ChemDB through PubChem).

Common to all: growth or infection tests; species: HIV-1; read-out: EC50

ECn is the concentration giving n% inhibition of infection, replication or growth.

structure | conditions | mutations | read by | strain | cell line | value
CC(C)C1=C2[C@H]3CC[C@@H]4[C@@]5(C)CC[C@H](OC(=O)[C@H]6C[C@@H](C(=O)O)C6(C)C)C(C)(C)[C@@H]5CC[C@@]4(C)[C@]3(C)CC[C@@]2(CCNCc2cccc(Cl)c2)CC1=O | - | - | p24 / ELISA | 92HT599 | MT-2 | <1 µM
CCN1c2ncc(CCOc3ccc(Nc4nc(C(=O)O)cs4)cc3C)cc2C(=O)N(C)c2cccnc21 | - | - | p24 | IIIB | C8166 | <0.01 µM
CC(C)C1=C2[C@H]3CC[C@@H]4[C@@]5(C)CC[C@H](OC(=O)[C@H]6C[C@@H](C(=O)O)C6(C)C)C(C)(C)[C@@H]5CC[C@@]4(C)[C@]3(C)CC[C@@]2(CCNCCN2CCOCC2)CC1=O | - | - | p24 / ELISA | 92HT599 | MT-2 | <1 µM
COCCCOc1ncc(-c2cnc(C)c([C@H](OC(C)(C)C)C(=O)O)c2N2CCC(C)(C)CC2)cc1F | - | - | luminescence | NL4-3 | MT-2 | 0.0022 µM
CN(C(=O)[C@H](Cc1ccccc1)NC(=O)CS(=O)(=O)N[C@@H](Cc1ccccc1)C(=O)N(C)c1ccc2scnc2c1)c1ccc2scnc2c1 | - | - | luciferase | NL4-3 | MT-2 | 0.32 µM
O=C(Nc1ccc(F)cc1)c1ccccc1SSc1ccccc1C(=O)Nc1ccc(F)cc1 | - | - | XTT | - | CEM | 4.5 µM
CN(C(=O)[C@H](Cc1cc(F)cc(F)c1)NC(=O)NS(=O)(=O)N[C@@H](Cc1cc(F)cc(F)c1)C(=O)N(C)c1cnc2scnc2c1)c1cnc2scnc2c1 | - | - | luciferase | NL4-3 | MT-2 | 8.92 µM
Cc1ncnc(C)c1C(=O)N1C[C@H]2CN(CCC(c3ccccc3)C3CN(C(=O)C4CCCC4)C3)C[C@H]2C1 | - | - | cell fusion | - | - | 2.832 µM
COc1ccc(S(=O)(=O)N(CC(C)C)C[C@@H](O)CCN(CC2CCCC2)S(=O)(=O)Cc2cncs2)cc1 | - | - | p24 | IIIB | CEM | <1 µM
Cc1cc(-c2ccc[n+]([O-])c2)ccc1OCCc1cnc2c(c1)C(=O)N(C)c1cccnc1N2C1CC1 | - | - | p24 | IIIB | C8166 | <0.01 µM
COC(=O)N1CCC(C(CCN2C[C@@H]3CN(C(=O)c4c(C)ncnc4C)C[C@@H]3C2)c2ccccc2)CC1 | - | - | cell fusion | - | - | 0.744 µM
Cc1nc2cc(N(C)C(=O)[C@H](Cc3cc(F)cc(F)c3)NC(=O)NS(=O)(=O)N[C@@H](Cc3cc(F)cc(F)c3)C(=O)N(C)c3ccc4sc(C)nc4c3F)ccc2s1 | - | - | luciferase | NL4-3 | MT-2 | 0.86 µM
CC(=O)N1C2CCC(C2)N2C(=O)c3c(O)c(=O)c(C(=O)NCc4ccc(F)cc4F)cn3CC12 | 100% human serum | - | GFP | NL4-3 | MT-4 | 0.037 µM
Cc1cncc(C(=O)NC(C)(C)CNC[C@H](O)[C@@]23CC[C@]4(C)[C@H](CC[C@@H]5[C@@]6(C)CC[C@H](OC(=O)[C@H]7C[C@@H](C(=O)O)C7(C)C)C(C)(C)[C@@H]6CC[C@]54C)C2=C(C(C)C)C(=O)C3)n1 | - | - | p24 / ELISA | 92HT599 | MT-2 | <1 µM
Nc1ncnc2c1ncn2[C@@H]1C=C[C@H](CO)[C@H]1CO | - | - | XTT | IIIB | MT-4 | 0.71 µg/mL
COc1ccc(S(=O)(=O)N(CC2CCCC2)C(=O)C(=O)C(=O)[C@@H](Cc2ccccc2)NC(=O)O[C@H]2CCOC2)cc1 | - | - | p24 | IIIB | CEM | <1 µM
Cc1ncc(-c2ccc(OCCOc3ccncc3)cn2)c(N2CCC(C)(C)CC2)c1[C@H](OC(C)(C)C)C(=O)O | - | - | luminescence | NL4-3 | MT-2 | 0.0479 µM
CC(C)C1=C2[C@H]3CC[C@@H]4[C@@]5(C)CC[C@H](OC(=O)[C@@H]6C[C@H](C(=O)O)C6(C)C)C(C)(C)[C@@H]5CC[C@@]4(C)[C@]3(C)CC[C@@]2([C@@H](O)CN(CCN(C)C)C(=O)c2ccc(Cl)cc2)CC1=O | - | - | p24 / ELISA | 92HT599 | MT-2 | <1 µM
O=C(N[C@@H](Cc1ccccc1)C(=O)C(F)(F)CN(Cc1ccccc1)S(=O)(=O)c1ccccc1)OC1COCOC1 | - | - | p24 | IIIB | CEM | <1 µM
COc1ccc(N(C)C(=O)[C@H](Cc2ccccc2)NC(=O)NS(=O)(=O)N[C@@H](Cc2cc(F)cc(F)c2)C(=O)N(C)c2ccc(OC)cc2)cc1 | - | - | luciferase | NL4-3 | MT-2 | 0.02 µM
Cc1cn([C@H]2C[C@H](N=[N+]=[N-])[C@@H](CO)O2)c(=O)[nH]c1=O | - | - | luciferase / luminescence | SF162 | TZM-bl | 0.00523 µM
CC(C)(C)NC(=O)c1ccccc1SSc1ccccc1C(=O)NC(C)(C)C | - | - | XTT | - | CEM | 58 µM
[2H]C(CN)(CNC[C@H](O)[C@@]12CC[C@]3(C)[C@H](CC[C@@H]4[C@@]5(C)CC[C@H](OC(=O)[C@H]6C[C@@H](C(=O)O)C6(C)C)C(C)(C)[C@@H]5CC[C@]43C)C1=C(C(C)C)C(=O)C2)NC(=O)c1ccc(Cl)cc1 | - | - | p24 / ELISA | 92HT599 | MT-2 | <1 µM
C=CCCN(C(=O)[C@H](Cc1cc(F)cc(F)c1)NS(=O)(=O)NC(=O)N[C@@H](Cc1cc(F)cc(F)c1)C(=O)N(CC=C)c1ccc(OC)cc1)c1ccc(OC)cc1 | - | - | luciferase | NL4-3 | MT-2 | 0.38 µM
CC(C)c1c(Cc2ccccc2)n(COCc2ccccc2)c(=O)[nH]c1=O | - | K103N/Y181C | p24 / ELISA | A17 | MT-4 | >10 µM
CCN1c2ncc(CCOc3ccc(-c4ccc(C)[n+]([O-])c4)cc3C)cc2C(=O)N(C)c2cccnc21 | - | RT-K103N Y181C | p24 | - | C8166 | <0.01 µM
Cc1ncnc(C)c1C(=O)N1C[C@H]2CN(CCC(c3ccccc3)C3CN(CC(F)(F)F)C3)C[C@H]2C1 | - | - | cell fusion | - | - | 5 µM
Cc1ncc(-c2ccc(OCCC3COC3)nc2)c(N2CCC(C)(C)CC2)c1[C@H](OC(C)(C)C)C(=O)O | - | - | luminescence | NL4-3 | MT-2 | 0.0011 µM
COc1ccc(N(C)C(=O)[C@H](Cc2ccccc2)NC(=O)COc2nc3ccccc3n(CC(=O)N[C@@H](Cc3ccccc3)C(=O)N(C)c3ccc(OC)cc3)c2=O)cc1 | - | - | luciferase | NL4-3 | MT-2 | 0.21 µM
Cc1cc(Cl)ccc1OCCNc1ccc(-c2cnc(C)c([C@H](OC(C)(C)C)C(=O)O)c2N2CCC(C)(C)CC2)nc1 | - | - | luminescence | NL4-3 | MT-2 | 0.005 µM
CCN1c2ncc(CCOc3ccc(C(=O)Nc4cccnc4C)cc3C)cc2C(=O)N(C)c2cccnc21 | - | - | p24 | IIIB | C8166 | <0.01 µM
Cc1ncc(-c2ccc(N(C)CCOc3ccc(F)cc3Cl)cn2)c(N2CCC(C)(C)CC2)c1[C@H](OC(C)C)C(=O)O | - | - | luminescence | NL4-3 | MT-2 | 0.005 µM
CC[C@H](C)[C@H](NC(=O)c1ccccc1SSc1ccccc1C(=O)N[C@H](C(=O)O)[C@@H](C)CC)C(=O)O | - | - | XTT | RF1 | CEM | 6.3 µM
CCCc1c(OC2CCCCC2)c2cc(Cl)ccc2[nH]c1=O | - | RT-K103N V108I | β-galactosidase | NNRTI-resistant (RT K103N V108I) | HeLa + HeLa-MAGI | >2 µM
Cc1ncnc(C)c1C(=O)N1C[C@H]2CN(CCC(c3cccc(F)c3)C3CN(S(=O)(=O)C4CC4)C3)C[C@H]2C1 | - | - | cell fusion | - | - | 0.03 µM
O=C(O)CCNC(=O)c1ccccc1SSc1ccccc1C(=O)NCCC(=O)O | - | - | XTT | - | CEM | 7.8 µM
Cc1ncnc(C)c1C(=O)N1C[C@H]2CN(CCC(c3ccccc3)C3CCN(C(=O)C(C)C)CC3)C[C@H]2C1 | - | - | cell fusion | - | - | 5 µM
CC(C)C1=C2[C@H]3CC[C@@H]4[C@@]5(C)CC[C@H](OC(=O)[C@H]6C[C@@H](C(=O)O)C6(C)C)C(C)(C)[C@@H]5CC[C@@]4(C)[C@]3(C)CC[C@@]2([C@@H](O)CNC(=O)C(C)(C)NC(=O)c2ccc(N3CCCCC3)cc2)CC1=O | - | - | p24 / ELISA | 92HT599 | MT-2 | <1 µM
Nc1ccn([C@H]2S[C@@H](CO)C=C2F)c(=O)n1 | - | - | PCR | BRU | PBMC | <5.2 µM
COc1ccc(N(C)C(=O)[C@H](Cc2cc(F)cc(F)c2)Nc2ccnc(N[C@@H](Cc3cc(F)cc(F)c3)C(=O)N(C)c3ccc(OC)cc3)n2)cc1 | - | - | luciferase | NL4-3 | MT-2 | 9.53 µM
CCN1c2ncc(CCOc3ccc(-c4ccccn4)cc3C)cc2C(=O)N(C)c2cccnc21 | - | - | p24 | IIIB | C8166 | <0.01 µM
C=CCN(C(=O)[C@H](Cc1cc(F)cc(F)c1)NC(=O)NS(=O)(=O)N[C@@H](Cc1cc(F)cc(F)c1)C(=O)N(CC=C)c1ccc(OC)cc1)c1ccc(OC)cc1 | - | - | luciferase | NL4-3 | MT-2 | 0.26 µM
CCN1c2ncc(CCOc3ccc(-c4cccc(CC(=O)O)c4)cc3C)cc2C(=O)N(C)c2cccnc21 | - | RT-K103N Y181C | p24 | - | C8166 | <0.01 µM
COc1ccc(S(=O)(=O)N(CC(C)C)C[C@@H](O)CCN(CC2CCCC2)S(=O)(=O)c2ccc3nc[nH]c3c2)cc1 | - | - | p24 | IIIB | CEM | <1 µM
CC(C)CCC[C@@H](C)[C@H]1CCC2C3CCC4C[C@@H](OCc5cn([C@@H]6O[C@H](COS(=O)(=O)[O-])[C@@H](O[C@H]7O[C@H](COS(=O)(=O)[O-])[C@@H](O[C@H]8O[C@H](COS(=O)(=O)[O-])[C@@H](OS(=O)(=O)[O-])[C@H](OS(=O)(=O)[O-])[C@H]8OS(=O)(=O)[O-])[C@H](OS(=O)(=O)[O-])[C@H]7OS(=O)(=O)[O-])[C@H](OS(=O)(=O)[O-])[C@H]6OS(=O)(=O)[O-])nn5)CC[C@]4(C)C3CC[C@@]21C | - | - | p24 / ELISA / antigen | HI92-206 isolate (X4/R5) | PBMC | 8 µg/mL
COc1ccc(N(C)C(=O)[C@H](Cc2cc(F)cc(F)c2)NC(=O)Cc2cccc(CC(=O)N[C@@H](Cc3cc(F)cc(F)c3)C(=O)N(C)c3ccc(OC)cc3)c2)cc1 | - | - | luciferase | NL4-3 | MT-2 | 0.48 µM
COc1ccc(S(=O)(=O)N(CC2CCCC2)C[C@@H](O)CN(CCc2ccccc2)CC(=O)c2ccccc2)cc1 | - | - | p24 | IIIB | CEM | <1 µM
Cc1ncnc(C)c1C(=O)N1C[C@H]2CN(CCC(c3cc(F)cc(F)c3)C3CN(S(=O)(=O)C4CC4)C3)C[C@H]2C1 | - | - | cell fusion | - | - | 0.063 µM
CC(C)CN(CC(O)CN1CCN(Cc2cccnc2)CC1C(=O)NC(C)(C)C)S(=O)(=O)c1ccccc1 | - | - | p24 | IIIB | CEM | <1 µM
Cc1ncc(-c2ccc(OCCC3CCCCC3)cn2)c(N2CCC(C)(C)CC2)c1[C@H](OC(C)(C)C)C(=O)O | - | - | luminescence | NL4-3 | MT-2 | 0.0016 µM
CCc1c(Cc2ccccc2)nc(SCSC)[nH]c1=O | - | - | MTT / p24 | IIIB | PBMC | 0.8 µM
Cc1ncc(-c2ccc(NCCOc3ccc(C(N)=O)cc3)cn2)c(N2CCC(C)(C)CC2)c1[C@H](OC(C)(C)C)C(=O)O | - | - | luminescence | NL4-3 | MT-2 | 0.0794 µM
Cc1c(OCC2CCC2)c2cc(F)ccc2[nH]c1=O | - | RT-Y181C | β-galactosidase | NNRTI-resistant (RT Y181C) | HeLa + HeLa-MAGI | >2 µM

Conditions beyond the fields shown may differ between rows. An empty or dashed field is not shown.